Literature values, collected in patent US20220096411A1, “COMBINING METABOLIC STIMULATION AND AMINO ACIDS TO SENSITIZE TOLERANT BACTERIA TO ANTIBIOTICS” (priority 2019, published 2022).
Some compounds share one wording; it may come from a single statement.

system: E. coli peptidoglycan; conditions: previous work (14); cited from earlier work

| Structure (SMILES) | incorporation of exogenous D-amino acid into peptidoglycan |
| --- | --- |
| CC(C)[C@@H](N)C(=O)O [D-valine] | incorporated into E. coli peptidoglycan |
| O=C(O)[C@H]1CCCN1 [D-proline] | is not |
| CSCC[C@@H](N)C(=O)O [D-methionine] | incorporated into E. coli peptidoglycan |
| CCCC[C@@H](N)C(=O)O [D-norleucine] | incorporated into E. coli peptidoglycan |
